pIC50: −log10 of the molar value.
System: P. falciparum
Assay: In vitro antimalarial activity (Figure 1b)

C1CCC2(CC1)OOC1(CCCCC1)OO2
pIC50: 7.60
